Pooled drug test results. Numbers come from NIAID ChemDB, via PubChem.

All rows: cytotoxicity tests; cells: PRK; measure: CC50

Neighbouring rows are from separate reports.

structure	result
NC1CSCON2CCc3c([nH]c4ccccc34)[C@H]12	≥10 µg/mL
O=c1[nH]c(=O)n(C2CC(CO)[C@H](O)C2)cc1I	>400 µg/mL
N=C(N)CCNC(=O)c1c[nH]c(NC(=O)c2c[nH]c(NC(=O)CCCCCCC(=O)Nc3c[nH]c(C(=O)Nc4c[nH]c(C(=O)NCCC(=N)N)c4)c3)c2)c1	≥10 µg/mL
Nc1nc2c(ncn2[C@@H]2O[C@H](CO)[C@@H](F)[C@H]2O)c(=O)[nH]1	200 µg/mL
Nc1nc(=O)n([C@H]2C[C@H](O)[C@@H](CO)O2)cc1/C=C\Cl	>200 µg/mL
NC1CCCON2CCc3c([nH]c4ccccc34)[C@H]12	400 µg/mL
O=c1[nH]c(=O)n([C@H]2C[C@H](O)[C@@H](CO)O2)cc1I	>400 µg/mL
Nc1ncnc2c1ncn2[C@@H]1O[C@H](CO)[C@@H](F)[C@H]1O	>40 µg/mL
CC(=O)Nc1nc2c(CC(O)CO)ncn2c(=O)[nH]1	200 µg/mL
Nc1ncnc2c1ncn2C1CC(CO)[C@@H](O)[C@H]1O	10 µg/mL
O=c1[nH]c(=O)n([C@@H]2OC3COP(=O)(O)OC3[C@H]2O)cc1F	≥100 µg/mL
Cc1cn([C@H]2O[C@H](CO)[C@@H](N=[N+]=[N-])[C@H]2F)c(=O)nc1N	>400 µg/mL
C=CCc1nc(C)n2c(=O)[nH]cnc12	100 µg/mL
O=c1[nH]c(=O)n([C@@H]2OC3COP(=O)(O)OC3[C@H]2O)cc1I	>400 µg/mL
N=C(N)CCNC(=O)c1c[nH]c(NC(=O)c2c[nH]c(NC(=O)c3ccc(CC(=O)Nc4c[nH]c(C(=O)Nc5c[nH]c(C(=O)NCCC(=N)N)c5)c4)cc3)c2)c1	≥10 µg/mL
O=c1[nH]c(=O)n([C@@H]2C[C@H](CO)[C@@H](O)C2)cc1I	>400 µg/mL
Nc1ncnc2c1ncn2[C@H]1C[C@@H](CO)[C@H](O)[C@@H]1O	>400 µg/mL
N=C(N)CCNC(=O)c1c[nH]c(NC(=O)c2c[nH]c(NC(=O)CCCCCCCC(=O)Nc3c[nH]c(C(=O)Nc4c[nH]c(C(=O)NCCC(=N)N)c4)c3)c2)c1	≥100 µg/mL
O=c1[nH]c(=O)n([C@H]2C[C@H](O)[C@@H](CO)O2)cc1/C=C\Cl	>200 µg/mL
C=CCc1nc(C)n2c(=O)[nH]c(NC(C)=O)nc12	200 µg/mL

For reference, 2 entries again:

structure,result
O=c1[nH]c(=O)n([C@@H]2OC3COP(=O)(O)OC3[C@H]2O)cc1F,≥100 µg/mL
Cc1cn([C@H]2O[C@H](CO)[C@@H](N=[N+]=[N-])[C@H]2F)c(=O)nc1N,>400 µg/mL

CCn: concentration that lowers growth or viability of the cells by n%.